PMC8175989

Tests used:
CRP (Vibrio vulnificus) [1] = experiment: DNase I footprinting; details: 1 mM cAMP, protects CRPB1 -10 to +10, CRPB2 -69 to -31, CRPB3 -99 to -88 from nsrR TSS; recombinant protein; protein details: His6; probe letters rebuilt from the primers and the genome
Lrp [2] = experiment: DNase I footprinting; details: protects -75 to -11 from hmpA TSS (LRPB), phased hypersensitivity; recombinant protein; protein details: His6; probe letters rebuilt from the primers and the genome
[3] = target: NsrR (Vibrio vulnificus MO6-24/O) (UniProt Q8DCU1); experiment: DNase I footprinting; details: protects -2 to +18 from hmpA TSS (NSRRB); recombinant protein; protein details: His6; probe letters rebuilt from the primers and the genome
NsrR + Lrp = experiment: EMSA; details: simultaneous binding of NsrR and Lrp, Lrp binding buffer; EMSA 10 nM probe (DNase I 40 nM), 30 min, 30 C, 20 ul, 0.1 ug poly(dI-dC); recombinant protein; protein details: His6,His6; probe letters rebuilt from the primers and the genome
CRP (Vibrio vulnificus) [4] = experiment: EMSA; details: 1 mM cAMP, unlabeled self-competitor competes; EMSA 10 nM probe (DNase I 40 nM), 30 min, 30 C, 20 ul, 0.1 ug poly(dI-dC); recombinant protein; protein details: His6; probe letters rebuilt from the primers and the genome
Lrp [5] = experiment: EMSA; details: poly(dI-dC) 0.1 ug, unlabeled self-competitor competes; EMSA 10 nM probe (DNase I 40 nM), 30 min, 30 C, 20 ul, 0.1 ug poly(dI-dC); recombinant protein; protein details: His6; probe letters rebuilt from the primers and the genome
[6] = target: NsrR (Vibrio vulnificus MO6-24/O) (UniProt Q8DCU1); experiment: EMSA; details: poly(dI-dC) 0.1 ug, unlabeled self-competitor competes; EMSA 10 nM probe (DNase I 40 nM), 30 min, 30 C, 20 ul, 0.1 ug poly(dI-dC); recombinant protein; protein details: His6; probe letters rebuilt from the primers and the genome

Measured: binding result

ATTGCGTTGGTTGCTCATGTTAAAGATATCTTTGAGTTCAGGATTGTGCTCAAACATACGTTGGTAGAAATGGGCGGTCAGTTTTGGTCCTGTTTCGGCCAACAGGGGGGCGGTCGATTTTACAATGTTAATGGTGTTTTCGCTGAGCATAGCGGGCTTCCTATTAGGATTATTTGTTTAATTTTAAGTTGCATCTGTAATGCATGTTTAAAGTTGTATCTCAAATGTATCTTTCAATCAAGAAAAGTTTTAGACTTTCTTCACCATAGAGGAGCCCACCATGCAACTGACGAGCTTTACTGATTACGCCTTGCGCACCCTGATTTATCTCGCGTCGTTGCCGGATAATGAACAGACCAATATCACCGATGTGACTGAGCTATTTGGTGTTTC (double strand) [nsrR-hmpA regulatory region, 393 bp]
binds: all assays above

Construct, isoform or probe ends are uncertain for at least one entry.
